Assay results as given in PubChem BioAssay AID540256 (National Center for Advancing Translational Sciences (NCATS), 2011).
Only a part is listed here, and it is no random draw. Inconclusive results are not listed. The source made the active and inactive calls. Calls come from the whole dose curve; tested in HEK293 cells.

Test: qHTS for Inhibitors of binding or entry into cells for Lassa Virus; note: nearly all actives have a fitted effect of over 50% in size
Conditions: Lassa virus pseudotype entry inhibition, cell reporter; at 37.9 µM (top of the series) unless noted
% is set by controls: 0 for no effect and ±100 for the full control effect.

Compound	activity change, negative = inhibition
Nc1ccc([As](=O)(O)c2ccc([N+](=O)[O-])cc2)cc1	inactive: 13.3%
C(Cc1nn[nH]n1)Cc1nn[nH]n1	inactive: 11.3%
O=C(OC1CN2CCC1CC2)c1cccc(Cl)c1 (stereo not drawn)	inactive: -14.3%
O=[N+]([O-])c1ccc(OP2(=O)COCCO2)cc1 (stereo not drawn)	inactive: 19.8% [at 46.1 µM]
CC(=O)NC(SC(=S)N(C)C)C(Cl)(Cl)Cl (stereo not drawn)	inactive: -13.7%
O=[As](O)(c1ccccc1)c1ccc(O)cc1	inactive: 20.9%
O=P(Nc1nc2ccccc2s1)(c1ccccc1)c1ccccc1	inactive: -2.03%
CN(C)CCOC(=O)C(O)(c1ccccc1)C1CCCCC1 (stereo not drawn)	inactive: 16.8%
COc1ccc(N)c([N+](=O)[O-])c1[N+](=O)[O-]	inactive: 1.83% [at 46.1 µM]
CN(C)C1(CNC(=O)c2ccc(Cl)c(S(N)(=O)=O)c2)CCCCC1	inactive: -3.33%
O=P(Nc1ccccn1)(c1ccc(Br)cc1)c1ccc(Br)cc1	inactive: 1.21% [at 46.1 µM]
O=P(Nc1nccs1)(c1ccccc1)c1ccccc1	inactive: 3.67%
CC(=O)Nc1ccc([As](=O)(O)O)c(O)c1	inactive: 6.36%
COC(=O)C1(C)COP(=O)(NCc2ccccc2)OC1 (stereo not drawn)	inactive: -9.14%
CC(=O)c1ccc(N2CC2c2ccncc2)cc1 (stereo not drawn)	inactive: 7.71% [at 46.1 µM]
Cc1ccccc1CN(C)C(=O)COC(=O)C(O)(c1ccccc1)c1ccccc1	inactive: 10.2%
CCc1cc(O)c([N+](=O)[O-])c(C)c1[N+](=O)[O-]	inactive: -8.09%
CC(C)(C)C(=O)NC(Sc1ccccc1)C(Cl)(Cl)Cl (stereo not drawn)	inactive: 2.6%
O=P1(Nc2nc3ccc(Cl)cc3s2)COc2ccccc2O1 (stereo not drawn)	inactive: 2.23%
CN(C)C(=O)Oc1noc2ccccc12	inactive: -0.376%
Cc1ccccc1OP(=O)(Nc1ccccn1)Oc1ccccc1C	inactive: -17.9%

Compound	activity change, negative = inhibition
CC(=O)NC(SC(=S)N(CC(C)C)CC(C)C)C(Cl)(Cl)Cl (stereo not drawn)	inactive: -1.83%
Cc1ccc(OP(=O)(Nc2ccccn2)Oc2ccc(C)cc2)cc1	inactive: -28%
COC(=O)c1cc2c(s1)N=C(c1ccccc1)N(C)P2(=O)N1CCOCC1 (stereo not drawn)	inactive: 3.79%
CCC(=O)N1C2C3N(C(=O)CC)C1C1N(C(=O)CC)C(C(N1C(=O)CC)N3C(=O)CC)N2C(=O)CC	inactive: -7.44%
CCN(CC)CCCOC(=O)C(O)(c1ccccc1)C1CCCCC1 (stereo not drawn)	inactive: -10.4%
O=P1(N(CCCl)CCCl)OCCC2CCCCN21 (stereo not drawn)	inactive: 1.87% [at 46.1 µM]
O=C(NC1CCS(=O)(=O)C1)NP(=S)(Oc1ccccc1)Oc1ccccc1 (stereo not drawn)	inactive: -16.3%
CCNC(=S)/N=C(\N)N[N+](=O)[O-]	inactive: 4.25% [at 46.1 µM]
Cc1ccc(NP(=O)(Oc2cccc(C)c2)Oc2cccc(C)c2)nc1	inactive: 4.99%
c1ccc(-c2nn[nH]n2)c(-c2nn[nH]n2)c1	inactive: 18.8%
CCN(N=Nc1nonc1N)c1nonc1N	inactive: 1.39%
Cc1ccc(NP(=O)(Oc2ccccc2F)Oc2ccccc2F)nc1	inactive: -7.44%
CCOP(=O)(Nc1ccccc1)OCC	inactive: 9.6%
Cc1cc(SC(NC(=O)c2ccc(F)cc2)C(Cl)(Cl)Cl)ncn1 (stereo not drawn)	inactive: 17.2%
CCCC1OP(N)(=O)OCC1CC (stereo not drawn)	inactive: -18.8% [at 46.1 µM]
O=C(O)c1ccccc1[As](=O)(O)O	inactive: -10.8% [at 46.1 µM]
CC(=O)Nc1ccc([As](=O)(O)O)cc1	inactive: 1.89%
O=P(Nc1nc2ccc(Cl)cc2s1)(c1ccccc1)c1ccccc1	inactive: 11.2%
CC(C)CC(=O)NC(Sc1ccc(Cl)cc1)C(Cl)(Cl)Cl (stereo not drawn)	inactive: 2.86%
O=C(NC(Sc1ccncn1)C(Cl)(Cl)Cl)c1ccccc1 (stereo not drawn)	inactive: -2.04%
Oc1ccccc1CNc1ccccn1	inactive: 16.5%

Compound	activity change, negative = inhibition
Cc1ccc(OP(=O)(Nc2nccs2)Oc2ccc(C)cc2)cc1	inactive: 3.94%
COc1ccccc1OP(=O)(Nc1ccc(C)cn1)Oc1ccccc1OC	inactive: 6.63%
CN(C)CCOC(=O)C(O)(c1ccccc1)C1CCCC1 (stereo not drawn)	inactive: 17.1%
Clc1ccc(Cl)c(NC2=NCC(CBr)S2)c1 (stereo not drawn)	inactive: -1.33%
CN1CCCC(OC(=O)C(c2ccccc2)c2ccccc2)C1 (stereo not drawn)	inactive: 4.78%
Cc1ccc(N/C(=N/P(=O)(N2CCOCC2)N2CCOCC2)N2CCOCC2)cc1	inactive: 2.09%
CN(C)C(=O)OCCc1n(C)cc[n+]1C	inactive: -4.51%
CC(C)=N/N=C(\N)N[N+](=O)[O-]	inactive: 19.2%
CC1CCN(C(=O)Oc2c(Cl)cc(Cl)c3cccnc23)CC1	inactive: 2.81%
Nc1ccc([As](=O)(O)c2ccc(N)cc2)cc1	inactive: 17.6%
CCN(/C(=N/P(=O)(N1CCOCC1)N1CCOCC1)N1CCOCC1)c1ccc(OC)cc1	inactive: -1%
CC(=O)N1C2C3N(C(C)=O)C1C1N(C(C)=O)C(C(N1C(C)=O)N3C(C)=O)N2C(C)=O	inactive: 3.63%
O=[N+]([O-])c1cccc2n[nH]nc12	inactive: -17.7%
O=[N+]([O-])c1cc([N+](=O)[O-])c(CCNc2ccccc2)c([N+](=O)[O-])c1	inactive: -0.623%
Cc1ccc(NP(=O)(Oc2ccccc2)Oc2ccccc2)nc1	inactive: 4.13% [at 46.1 µM]
COC(=O)C1(C)COP(=O)(Nc2ccccc2)OC1 (stereo not drawn)	inactive: 1.15% [at 46.1 µM]
O=[N+]([O-])c1ncn(CCn2ncnc2[N+](=O)[O-])n1	inactive: -4.11%
O=P1(N(CCCl)CCCl)OCCCS1 (stereo not drawn)	inactive: 5.78% [at 46.1 µM]
Cc1cc(SC(NC=O)C(Cl)(Cl)Cl)ncn1 (stereo not drawn)	inactive: 17.1%
O=P(Nc1ccccn1)(c1cccc2ccccc12)c1cccc2ccccc12	inactive: -1.69% [at 46.1 µM]
CCOC(=O)Nc1cccc([As](=O)(O)O)c1	inactive: -8.07% [at 46.1 µM]
